From article PMC4964355

Key:
[1] = target: Sup35-NM, a protein segment comprising N-terminal and middle domains of the yeast S. cerevisiae prion Sup35 (S. cerevisiae); assay: SEC; dis-assembly of FP fibrils (20 μM) boiled with 2% SDS for 5 min, cooled, injected; room temperature
[2] = target: Sup35-NM, a protein segment comprising N-terminal and middle domains of the yeast S. cerevisiae prion Sup35 (S. cerevisiae); assay: native gel or EMSA; BN-PAGE of AG fibrils (20 μM, over 1 month) after 2% SDS under boiling for 5 min
[3] = target: Sup35-NM, a protein segment comprising N-terminal and middle domains of the yeast S. cerevisiae prion Sup35 (S. cerevisiae); assay: SEC; dis-assembly of AG fibrils under SDS without boiling; room temperature
[4] = target: Sup35-NM, a protein segment comprising N-terminal and middle domains of the yeast S. cerevisiae prion Sup35 (S. cerevisiae); assay: SEC; time course of self-assembly after removal of urea by desalting; HiLoad Superdex 200 pg 16/60, 1 mL/min; 20 mM Tris pH 8.0, 100 mM NaCl; 4 °C; samples at 2 to 32 h
[5] = target: Sup35-NM, a protein segment comprising N-terminal and middle domains of the yeast S. cerevisiae prion Sup35 (S. cerevisiae); assay: SEC; dis-assembly of AG fibrils (1 month, 20 μM) boiled with 2% SDS for 5 min, cooled, injected; room temperature
[6] = target: Sup35-NM, a protein segment comprising N-terminal and middle domains of the yeast S. cerevisiae prion Sup35 (S. cerevisiae); assay: native gel or EMSA; BN-PAGE of AG fibrils under SDS without boiling

Sup35-NM, a protein segment comprising N-terminal and middle domains of the yeast S. cerevisiae prion Sup35 (domain or fragment)
dissociated portion of fibrils [1]: 98%
stoichiometry N [1]: 3
percentage of ATmer in the whole AG fibril [2]: 1.1%
stoichiometry N [2]: 3
percentage of dissociated fibrils [3]: 46%
percent of total protein in the 41 min species (short fibril) [4]: 83%
stoichiometry N [4]: 9
dissociated portion of fibrils [5]: 58%
stoichiometry N [5]: 3 and 9
percent monomer band on BN-PAGE [6]: 13%

Several values for one entry are separate records, joined by “and”; a condition that tells them apart may be missing. Identical values can stand only once.
